Pooled drug test results. Numbers come from NIAID ChemDB, via PubChem.

All rows: host cell toxicity; cell line: Huh7; measure: CC50

Conditions beyond the fields shown may differ between rows. CCn is the concentration with n% toxicity to the cells.

compound	value
CCCC(NC(=O)[C@@H]1C2CCCC2CN1C(=O)[C@@H](NC(=O)[C@@H](O)C(C)C)C(C)C)C(=O)C(=O)Nc1ccccc1	>100 µM
C[C@H]1C[C@@H]2[C@H]([C@@H](O)C[C@@]3(C)[C@H]2CC[C@]3(O)C(=O)CO)[C@@]2(C)C=CC(=O)C=C12	300 µM
CN1CCCC(CN(C)C(=O)Cn2c(-c3ccccc3)c(C3CCCCC3)c3sc(C(=O)O)cc32)C1	>30 µM
CCC[C@H](NC(=O)[C@@H]1C2CCCC2CN1C(=O)[C@@H](NC(=O)[C@@H](NC(=O)c1cnccn1)C1CCCCC1)C(C)(C)C)C(=O)C(=O)N[C@@H](C)Cc1ccccc1	34.3 µM
CN(C)C(=O)c1ccc(-c2ccc(Cl)cc2)c(COc2ccc(-c3nc4cc(C(=O)O)ccc4n3C3CCCCC3)cc2)c1	25 µM
CCCC(NC(=O)[C@@H]1C2CCCC2CN1C(=O)[C@@H](NC(=O)[C@@H](O)C(C)C)C(C)C)C(=O)C(=O)NC1CC1	>100 µM
CCOC(=O)CCc1ccccc1OP(=O)(N[C@@H](C)C(=O)OCC)OC[C@H]1O[C@@H](n2cnc3c(N)nc(N)nc32)[C@](C)(O)[C@@H]1O	>10 µM
NC(=O)c1cn([C@@H]2C[C@H](CO)C[C@H]2O)nn1	>320 µM
CCC[C@H](NC(=O)[C@@H]1C2CCCC2CN1C(=O)[C@@H](NC(=O)[C@@H](NC(=O)c1cnccn1)C(C)CC)C(C)(C)C)C(=O)C(=O)NC1CC1	>100 µM
CN(C)CCN1CCn2c(c(C3CCCCC3)c3sc(C(=O)O)cc32)-c2ccccc21	>5.25 µM
C[C@]12C=CC(=O)C=C1CC[C@@H]1[C@@H]2C(=O)C[C@@]2(C)[C@H]1CC[C@]2(O)C(=O)CO	>300 µM
CC(C)N1CCC(N(C)C(=O)Cn2c(-c3ccccc3)c(C3CCCCC3)c3sc(C(=O)O)cc32)C1	>13.75 µM
CCC[C@H](NC(=O)[C@@H]1C2CCCC2CN1C(=O)[C@@H](NC(=O)[C@@H](NC(=O)c1cnccn1)C1CCCCC1)C(C)(C)C)C(=O)C(=O)N[C@@H](C)c1ccncc1	73.6 µM
CC[C@@H]1/C=C(\C)C[C@H](C)C[C@H](OC)[C@H]2O[C@@](O)(C(=O)C(=O)N3CCCC[C@H]3C(=O)O[C@H](/C(C)=C/[C@H]3CC[C@H](O)[C@H](OC)C3)[C@H](C)[C@@H](O)CC1=O)[C@H](C)C[C@@H]2OC	60 µM
CCC[C@H](NC(=O)[C@@H]1C2CCCC2CN1C(=O)[C@@H](NC(=O)[C@@H](NC(=O)c1cnccn1)C1CCCCC1)C(C)(C)C)C(=O)C(=O)N[C@@H](C)c1ccc(C)cc1	63 µM
CN1CCCC(CNC(=O)Cn2c(-c3ccc(Cl)cc3)c(C3CCCCC3)c3sc(C(=O)O)cc32)C1	>19.25 µM
COC(=O)c1cn([C@@H]2C[C@H](CO)C[C@H]2O)nn1	>320 µM
O=C(O)c1cc2[nH]c(-c3ccccc3)c(C3CCCCC3)c2s1	>280 µM
CCOC(=O)[C@H](C)N[P@@](=O)(OC[C@H]1O[C@@H](n2cnc3c(N)nc(N)nc32)[C@](C)(O)[C@@H]1O)Oc1ccccc1CCC(=O)OC(C)C	>10 µM
CC(C)N1CCC(N(C)C(=O)Cn2c(-c3ccc(Cl)cc3)c(C3CCCCC3)c3sc(C(=O)O)cc32)C1	>13 µM
NC(=O)c1nnn([C@@H]2C[C@H](CO)C[C@H]2O)c1N	>320 µM
CN(C)Cc1c(C(=O)O)sc2c(C3CCCCC3)c(-c3ccc(Cl)cc3)n(C)c12	>30 µM
CC(C)OC(=O)CCc1ccccc1OP(=O)(N[C@@H](C)C(=O)OC(C)C)OC[C@H]1O[C@@H](n2cnc3c(N)nc(N)nc32)[C@](C)(O)[C@@H]1O	>10 µM
COC(=O)c1cn([C@@H]2C[C@H](CCP(=O)(O)O)C[C@H]2O)nn1	>320 µM
CCOC(=O)[C@H](C)N[P@](=O)(OC[C@H]1O[C@@H](n2cnc3c(N)nc(N)nc32)[C@](C)(O)[C@@H]1O)Oc1ccccc1CCC(=O)OC(C)C	>10 µM
CN(C)C(=O)c1ccc(COc2ccc(-c3nc4cc(C(=O)O)ccc4n3C3CCCCC3)cc2)c(-c2ccc(Cl)cc2)c1	28 µM

3 of the rows above, restated:

| compound | value |
|---|---|
| NC(=O)c1nnn([C@@H]2C[C@H](CO)C[C@H]2O)c1N | >320 µM |
| CC(C)OC(=O)CCc1ccccc1OP(=O)(N[C@@H](C)C(=O)OC(C)C)OC[C@H]1O[C@@H](n2cnc3c(N)nc(N)nc32)[C@](C)(O)[C@@H]1O | >10 µM |
| CC[C@@H]1/C=C(\C)C[C@H](C)C[C@H](OC)[C@H]2O[C@@](O)(C(=O)C(=O)N3CCCC[C@H]3C(=O)O[C@H](/C(C)=C/[C@H]3CC[C@H](O)[C@H](OC)C3)[C@H](C)[C@@H](O)CC1=O)[C@H](C)C[C@@H]2OC | 60 µM |